Results of unrelated studies side by side (data: NIAID ChemDB).

All rows: tests in culture; organism: Haemophilus influenzae

A number after MIC or MFC names an inhibition level or a share of isolates. Conditions beyond the fields shown may differ between rows.

compound	strain or isolate	measure	value
CC[C@H]1OC(=O)C[C@@H](O)[C@H](C)[C@@H](O[C@@H]2O[C@H](C)[C@@H](O)[C@H](N(C)C)[C@H]2O)C(C=O)C[C@@H](C)C(=O)/C=C/C(C)=C/[C@@H]1COC(=O)Nc1ccc(Br)cc1	33929 (ampicillin-resistant)	MIC	1 µg/mL
CC1(C)S[C@@H]2[C@H](NC(=O)[C@H](N)c3ccc(O)cc3)C(=O)N2[C@H]1C(=O)O	434 strains	MIC50	0.25 µg/mL
CC[C@H]1OC(=O)[C@H](C)C(=O)[C@H](C)[C@@H](O[C@@H]2O[C@H](C)C[C@H](N(C)C)[C@H]2O)[C@](C)(OC)C[C@@H](C)C(=O)[C@H](C)[C@H]2N(CCCCn3cnc(-c4cccnc4)c3)C(=O)O[C@]12C	33929 (ampicillin-resistant)	MIC	2 µg/mL
CC[C@H]1OC(=O)[C@H](C)C(=O)[C@H](C)[C@@H](O[C@@H]2O[C@H](C)C[C@H](N(C)C)[C@H]2O)[C@@]2(C)C[C@@H](C)C(=NC(C)=O)[C@H](C)C(OC/C(=C\C=C\c3ccc([N+](=O)[O-])cc3)CO2)[C@]1(C)O	33929 (ampicillin-resistant)	MIC	32 µg/mL
CC[C@H]1OC(=O)[C@H](C)C(=O)[C@H](C)[C@@H](O[C@@H]2O[C@H](C)C[C@H](N(C)C)[C@H]2O)[C@](C)(OC)C[C@@H](C)C(=O)[C@H](C)[C@H]2N(CCCCn3cnc(-c4cccnc4)c3)C(=O)O[C@]12C	25 strains	MIC90	>64 µg/mL
CC[C@H]1OC(=O)[C@H](C)C(=O)[C@H](C)[C@@H](O[C@@H]2O[C@H](C)C[C@H](N(C)C)[C@H]2O)[C@@]2(C)C[C@@H](C)C(=NC(C)=O)[C@H](C)[C@@H](OC/C(=N\Oc3ccc(-c4cnccn4)s3)CO2)[C@]1(C)O	33929 (ampicillin-resistant)	MIC	4 µg/mL
C=C1COC2[C@@H](C)C(=NC(C)=O)[C@H](C)C[C@@](C)(OC1)[C@H](O[C@@H]1O[C@H](C)C[C@H](N(C)C)[C@H]1O)[C@@H](C)C(=O)[C@@H](C)C(=O)O[C@H](CC)[C@@]2(C)O	33929 (ampicillin-resistant)	MIC	>64 µg/mL
CC[C@H]1OC(=O)[C@H](C)C(=O)[C@H](C)[C@@H](O[C@@H]2O[C@H](C)C[C@H](N(C)C)[C@H]2O)[C@@]2(C)C[C@@H](C)C(=NC(C)=O)[C@H](C)[C@@H](OC/C(=N\OCC#Cc3cncnc3)CO2)[C@]1(C)O	33929 (ampicillin-resistant)	MIC	16 µg/mL
CC(C)(C)[C@H](NC(=O)C(CC1CCCC1)CN(O)C=O)C(=O)N1CCN(Cc2nccs2)CC1	Isolate 78025	MIC	4 µg/mL
CC[C@H]1OC(=O)C[C@@H](O)[C@H](C)[C@@H](O[C@@H]2O[C@H](C)[C@@H](O)[C@H](N(C)C)[C@H]2O)C(C=O)C[C@@H](C)C(=O)/C=C/C(C)=C/[C@@H]1COC(=O)NCCc1ccccc1	33929 (ampicillin-resistant)	MIC	1 µg/mL
CC(=O)NC[C@H]1CN(c2ccc(-c3cncs3)c(F)c2)C(=O)O1	UC 30063	MIC	4 µg/mL
C[C@@H]1O[C@@H]1P(=O)(O)O	ATCC31517	MIC	8 µg/mL
CC[C@H]1OC(=O)[C@H](C)C(=O)[C@H](C)[C@@H](O[C@@H]2O[C@H](C)C[C@H](N(C)C)[C@H]2O)[C@@]2(C)C[C@@H](C)C(=NC(C)=O)[C@H](C)[C@@H](OC/C(=N\OCC#Cc3ccc(N)nc3)CO2)[C@]1(C)O	33929 (ampicillin-resistant)	MIC	4 µg/mL
CC[C@H]1OC(=O)C[C@@H](O)[C@H](C)[C@@H](O[C@@H]2O[C@H](C)[C@@H](O)[C@H](N(C)C)[C@H]2O)C(C=O)C[C@@H](C)C(=O)/C=C/C(C)=C/[C@@H]1COC(=O)Nc1ccc(Cl)cc1	33929 (ampicillin-resistant)	MIC	1 µg/mL
CC(=O)NC[C@H]1CN(c2ccc(-c3noc(C(N)=O)n3)c(F)c2)C(=O)O1	UC 30063	MIC	>16 µg/mL
CC[C@H]1OC(=O)[C@H](C)C(=O)[C@H](C)[C@@H](O[C@@H]2O[C@H](C)C[C@H](N(C)C)[C@H]2O)[C@](C)(OC)C[C@@H](C)C(=O)[C@H](C)[C@H]2N(CCCCn3cnc(-c4cccnc4)c3)C(=O)O[C@]12C	434 strains	MIC90	2 µg/mL
CC[C@H]1OC(=O)[C@H](C)C(=O)[C@H](C)[C@@H](O[C@@H]2O[C@H](C)C[C@H](N(C)C)[C@H]2O)[C@@]2(C)C[C@@H](C)C(=NC(C)=O)[C@H](C)[C@@H](OC/C(=N\OCc3ccc4nc(N)sc4c3)CO2)[C@]1(C)O	33929 (ampicillin-resistant)	MIC	2 µg/mL
CC[C@H]1OC(=O)[C@H](C)C(=O)[C@H](C)[C@@H](O[C@@H]2O[C@H](C)C[C@H](N(C)C)[C@H]2O)[C@@]2(C)C[C@@H](C)C(=O)[C@H](C)C(OC/C=C/CO2)[C@]1(C)O	33929 (ampicillin-resistant)	MIC	>64 µg/mL
CC[C@H]1OC(=O)[C@H](C)C(=O)[C@H](C)[C@@H](O[C@@H]2O[C@H](C)C[C@H](N(C)C)[C@H]2O)[C@](C)(OC)C[C@@H](C)C(=O)[C@H](C)[C@H]2N(CCCCn3cnc(-c4cccnc4)c3)C(=O)O[C@]12C	DILL	MIC	2 µg/mL
CC[C@H]1OC(=O)[C@H](C)C(=O)[C@H](C)[C@@H](O[C@@H]2O[C@H](C)C[C@H](N(C)C)[C@H]2O)[C@@]2(C)C[C@@H](C)C(=NC(C)=O)[C@H](C)[C@@H](OC/C(=N\OCC#Cc3ncccn3)CO2)[C@]1(C)O	33929 (ampicillin-resistant)	MIC	8 µg/mL
CO/N=C1\CN(c2nc3c(cc2F)c(=O)c(C(=O)O)cn3C2CC2)CC1CN	24 strains	MIC50	0.016 µg/mL
CC[C@H]1OC(=O)[C@H](C)C(=O)[C@H](C)[C@@H](O[C@@H]2O[C@H](C)C[C@H](N(C)C)[C@H]2O)[C@@]2(C)C[C@@H](C)C(=NC(C)=O)[C@H](C)C(OC/C(=C\C=C\c3ccccc3)CO2)[C@]1(C)O	33929 (ampicillin-resistant)	MIC	8 µg/mL
CC(=O)NC[C@H]1CN(c2ccc(N3C[C@@H]4C(N)[C@@H]4C3)c(F)c2)C(=O)O1	ATCC31517	MIC	4 µg/mL
CC[C@H]1OC(=O)[C@H](C)[C@@H](O[C@H]2C[C@@](C)(OC)[C@@H](O)[C@H](C)O2)[C@H](C)[C@@H](O[C@H]2O[C@@H](C)C[C@@H](N(C)C)[C@@H]2O)[C@](C)(O)C[C@@H](C)C(=O)[C@H](C)[C@@H](O)[C@]1(C)O	33929 (ampicillin-resistant)	MIC	4 µg/mL
CC(=O)NC[C@H]1CN(c2ccc(-c3ncon3)c(F)c2)C(=O)O1	UC 30063	MIC	>16 µg/mL
CC(=O)NC[C@H]1CN(c2cc(F)c(N3C[C@@H]4C(N)[C@@H]4C3)c(F)c2)C(=O)O1	ATCC31517	MIC	4 µg/mL
CC(=O)NC[C@H]1CN(c2ccc(-c3cnn(Cc4ccccc4)c3)c(F)c2)C(=O)O1	UC 30063	MIC	>64 µg/mL
CC[C@H]1OC(=O)[C@H](C)C(=O)[C@H](C)[C@@H](O[C@@H]2O[C@H](C)C[C@H](N(C)C)[C@H]2O)[C@@](C)(OCC2CC2c2cnc3ccccc3c2)C[C@@H](C)C(=O)[C@H](C)[C@H]2NC(=O)O[C@@]21C	DILL	MIC	4 µg/mL
CC(=O)NC[C@H]1CN(c2ccc(-c3ccn(C)n3)c(F)c2)C(=O)O1	UC 30063	MIC	>64 µg/mL
CC[C@H]1OC(=O)[C@H](C)[C@@H](O[C@H]2C[C@@](C)(OC)[C@@H](O)[C@H](C)O2)[C@H](C)[C@@H](O[C@@H]2O[C@H](C)C[C@H](N(C)C)[C@H]2O)[C@](C)(O)C[C@@H](C)/C(=N\OCOCCOC)[C@H](C)[C@@H](O)[C@]1(C)O	434 strains	MIC90	16 µg/mL
CC(=O)NC[C@H]1CN(c2ccc(-c3noc(C(F)(F)F)n3)c(F)c2)C(=O)O1	UC 30063	MIC	>16 µg/mL
CC[C@H]1OC(=O)[C@H](C)C(=O)[C@H](C)[C@@H](O[C@@H]2O[C@H](C)C[C@H](N(C)C)[C@H]2O)[C@@]2(C)C[C@@H](C)C(=NC(C)=O)[C@H](C)C(OC/C(=C\C=C\c3ccc(OC)cc3)CO2)[C@]1(C)O	33929 (ampicillin-resistant)	MIC	32 µg/mL
CC[C@H]1OC(=O)C[C@@H](O)[C@H](C)[C@@H](O[C@@H]2O[C@H](C)[C@@H](O)[C@H](N(C)C)[C@H]2O)C(C=O)C[C@@H](C)C(=O)/C=C/C(C)=C/[C@@H]1COC(=O)Nc1ccc([N+](=O)[O-])cc1	33929 (ampicillin-resistant)	MIC	2 µg/mL
COc1c(N2C[C@@H]3CCCN[C@@H]3C2)c(F)cc2c(=O)c(C(=O)O)cn(C3CC3)c12	424 isolates	MIC90	0.04 µg/mL

2 of the rows above, restated:

compound | strain or isolate | measure | value
CC(=O)NC[C@H]1CN(c2ccc(-c3noc(C(N)=O)n3)c(F)c2)C(=O)O1 | UC 30063 | MIC | >16 µg/mL
CC[C@H]1OC(=O)[C@H](C)[C@@H](O[C@H]2C[C@@](C)(OC)[C@@H](O)[C@H](C)O2)[C@H](C)[C@@H](O[C@H]2O[C@@H](C)C[C@@H](N(C)C)[C@@H]2O)[C@](C)(O)C[C@@H](C)C(=O)[C@H](C)[C@@H](O)[C@]1(C)O | 33929 (ampicillin-resistant) | MIC | 4 µg/mL